Laboratory results as given in ChEMBL document CHEMBL1828518, “Arylazolylthioacetanilide. Part 8: Design, synthesis and biological evaluation of novel 2-(2-(2,4-dichlorophenyl)-2H-1,2,4-triazol-3-ylthio)-N-arylacetamides as potent HIV-1 inhibitors” (Eur J Med Chem, 2011).

Legend:
[1] = tested on: Human immunodeficiency virus 1; assay: Ratio of EC50 for HIV-1 3B harboring RT K103N mutant infected in human MT4 cells to EC50 for wild type HIV-1 3B infected in human MT4 cells; format: functional
Method in brief: (§1)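 Fold resistance is the EC50 against the drug-resistant strain divided by the EC50 against wild-type HIV-1 IIIB. Both values come from the same MT-4 assay: 5-day infection, MTT viability read-out, and serial fivefold compound dilutions in triplicate wells.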

[2] = tested on: Human immunodeficiency virus 1; assay: Ratio of EC50 for HIV-1 3B harboring RT L100I mutant infected in human MT4 cells to EC50 for wild type HIV-1 3B infected in human MT4 cells; format: functional; method in brief: as §1

## O=C1Nc2ccc(Cl)cc2[C@@](C#CC2CC2)(C(F)(F)F)O1 [EFAVIRENZ]
[1]
  Ratio EC50: 28.3
[2]
  Ratio EC50: 14.2
